pEC50: −log10 of the molar value. *1 amine or outer side, *2 acyl side, *3 side chain or, on linkers, in order; H or OH if unused. Where a SMILES comes first, the peptide text is derived from it. The star is where a group is joined. X1 = CCC(C(=O)Nc1sc(C(=O)*)c(C)c1C(=O)OC)c1ccc(C(F)(F)F)cc1; Ethylenediamine = C(CN[*:2])N[*:1]; Boc = CC(C)(C)OC(=O)*

The subject of one test is mD4-VV surrogate virus. Description: microbe, parasite or virus in culture. As to conditions: Orthopoxvirus vaccinia, read-out: EC50 (μM), antiviral mD4/VV activity. Format: cell-based, vaccinia virus (VV).
Regarding `CCC(C(=O)Nc1sc(C(=O)NCCNC(=O)CNC(=O)OC(C)(C)C)c(C)c1C(=O)OC)c1ccc(F)cc1` (stereo not shown) [Compound 1, Methyl 5-((2(2-((tert-butoxycarbonyl)amino)acetamido)ethyl)carbamoyl)-2-(2-(4-fluorophenyl)butanamido)-4-methylthiophene-3-carboxylate], the EC50 is 29.5 µM.

In the case of `CCC(C(=O)Nc1sc(C(=O)NCCNC(=O)[C@@H](N)C(C)C)c(C)c1C(=O)OC)c1ccc(F)cc1` (stereo partly drawn) [Compound 4, Methyl 5-((2-((S)-2-amino-3-methylbutanamido)ethyl)carbamoyl)-2-(2-(4-fluorophenyl)butanamido)-4-methylthiophene-3-carboxylate], the EC50 came out at 22.5 µM.

For `CCC(C(=O)Nc1sc(C(=O)NCCNC(=O)[C@@H](NC(=O)[C@@H](NC(=O)OC(C)(C)C)C(C)C)C(C)C)c(C)c1C(=O)OC)c1ccc(F)cc1` (stereo partly drawn) [Compound 5, Methyl 5-(((6S,9S)-6,9-diisopropyl-2,2-dimethyl-4,7,10-trioxo-3-oxa-5,8,11-triazatridecan-13-yl)carbamoyl)-2-(2-(4-fluorophenyl)butanamido)-4-methylthiophene-3-carboxylate], the EC50 amounted to 16.9 µM.

As for `CCC(C(=O)Nc1sc(C(=O)NCCNC(=O)[C@@H](NC(=O)[C@@H](N)C(C)C)C(C)C)c(C)c1C(=O)OC)c1ccc(F)cc1` (stereo partly drawn) [Compound 7, Methyl 5-((2-((S)-2-((S)-2-amino-3-methylbutanamido)-3-methylbutanamido)ethyl)carbamoyl)-2-(2-(4-fluorophenyl)butanamido)-4-methylthiophene-3-carboxylate], the EC50 amounted to 23.2 µM.

For `CCC(C(=O)Nc1sc(C(=O)NCCNC(=O)[C@@H](NC(=O)[C@@H](NC(=O)[C@@H](N)C(C)C)C(C)C)C(C)C)c(C)c1C(=O)OC)c1ccc(F)cc1` (stereo partly drawn) [Compound 9, Methyl 5-((2-((S)-2-((S)-2-((S)-2-amino-3-methylbutanamido)-3-methylbutanamido)-3-methylbutanamido)ethyl)carbamoyl)-2-(2-(4-fluorophenyl)butanamido)-4-methylthiophene-3-carboxylate], the EC50 was 2.1 µM.

On to `CCC(C(=O)Nc1sc(C(=O)NCCNC(=O)[C@@H](N)CC(C)C)c(C)c1C(=O)OC)c1ccc(F)cc1` (stereo partly drawn) [Compound 15, Methyl 5-((2-((S)-2-amino-4-methylpentanamido)ethyl)carbamoyl)-2-(2-(4-fluorophenyl)butanamido)-4-methylthiophene-3-carboxylate], for which the EC50 came to 28.1 µM.

With `CCC(C(=O)Nc1sc(C(=O)NCCNC(=O)[C@H](N)C(C)C)c(C)c1C(=O)OC)c1ccc(F)cc1` (stereo partly drawn) [Compound 18, Methyl 5-((2-((R)-2-amino-3-methylbutanamido)ethyl)carbamoyl)-2-(2-(4-fluorophenyl)butanamido)-4-methylthiophene-3-carboxylate], the EC50 was determined as 14.1 µM.

For `CCC(C(=O)Nc1sc(C(=O)NCCNC(=O)[C@H](NC(=O)[C@H](N)C(C)C)C(C)C)c(C)c1C(=O)OC)c1ccc(F)cc1` (stereo partly drawn) [Compound 19, Methyl 5-((2-((R)-2-((R)-2-amino-3-methylbutanamido)-3-methylbutanamido)ethyl)carbamoyl)-2-(2-(4-fluorophenyl)butanamido)-4-methylthiophene-3-carboxylate], the EC50 was about 10 µM.

As for `CCC(C(=O)Nc1sc(C(=O)NCCNC(=O)[C@H](NC(=O)[C@H](NC(=O)[C@H](N)C(C)C)C(C)C)C(C)C)c(C)c1C(=O)OC)c1ccc(F)cc1` (stereo partly drawn) [Compound 20, Methyl 5-((2-((R)-2-((R)-2-((R)-2-amino-3-methylbutanamido)-3-methylbutanamido)-3-methylbutanamido)ethyl)carbamoyl)-2-(2-(4-fluorophenyl)butanamido)-4-methylthiophene-3-carboxylate], the EC50 stood at 11.8 µM.

Consider `CCC(C(=O)Nc1sc(C(=O)NCCNC(=O)[C@@H](NC(=O)[C@@H](NC(=O)[C@@H](N)Cc2ccccc2)C(C)C)C(C)C)c(C)c1C(=O)OC)c1ccc(F)cc1` (stereo partly drawn) [Compound 21, Methyl 5-((2-((S)-2-((S)-2-((S)-2-amino-3-phenylpropanamido)-3-methylbutanamido)-3-methylbutanamido)ethyl)carbamoyl)-2-(2-(4-fluorophenyl)butanamido)-4-methylthiophene-3-carboxylate], for which the EC50 worked out at 61.4 µM.

In the case of `CCC(C(=O)Nc1sc(C(=O)NCCNC(=O)[C@@H](NC(=O)[C@@H](NC(=O)CN)C(C)C)C(C)C)c(C)c1C(=O)OC)c1ccc(F)cc1` (stereo partly drawn) [Compound 22, Methyl 5-((2-((S)-2-((S)-2-(2-aminoacetamido)-3-methylbutanamido)-3-methylbutanamido)ethyl)carbamoyl)-2-(2-(4-fluorophenyl)butanamido)-4-methylthiophene-3-carboxylate], the EC50 turned out to be 12.1 µM.

For the compound `CCC(C(=O)Nc1sc(C(=O)NCCNC(=O)[C@@H](NC(=O)[C@@H](N)C(C)C)C(C)C)c(C)c1C(=O)OC)c1ccc(C(F)(F)F)cc1` (stereo partly drawn) [Compound 24, Methyl 5-((2-((S)-2-((S)-2-amino-3-methylbutanamido)-3-methylbutanamido)ethyl)carbamoyl)-4-methyl-2-(2-(4-(trifluoromethyl)phenyl)butanamido)thiophene-3-carboxylate], the EC50 was determined as 13 µM.

Take `CCC(C(=O)Nc1sc(C(=O)NCCNC(=O)[C@@H](NC(=O)[C@@H](NC(=O)[C@@H](NC(=O)[C@@H](NC(=O)OC(C)(C)C)C(C)C)C(C)C)C(C)C)C(C)C)c(C)c1C(=O)OC)c1ccc(C(F)(F)F)cc1` (stereo partly drawn) [Compound 26, Methyl 4-methyl-5-(((6S,9S,12S,15S)-6,9,12,15-tetraisopropyl-2,2-dimethyl-4,7,10,13,16-pentaoxo-3-oxa-5,8,11,14,17-pentaazanonadecan-19-yl)carbamoyl)-2-(2-(4-(trifluoromethyl)phenyl)butanamido)thiophene-3-carboxylate] (Boc-VVVV-{Ethylenediamine-X1}): the EC50 amounted to 1.1 µM.

Turning to `CCC(C(=O)Nc1sc(C(=O)NCCNC(=O)[C@@H](NC(=O)[C@@H](NC(=O)[C@@H](NC(=O)[C@@H](N)C(C)C)C(C)C)C(C)C)C(C)C)c(C)c1C(=O)OC)c1ccc(C(F)(F)F)cc1` (stereo partly drawn) [Compound 28, methyl 5-(((5S,8S,11S,14S)-14-amino-5,8,11-triisopropyl-15-methyl-4,7,10,13-tetraoxo-3,6,9,12-tetraazahexadecyl)carbamoyl)-4-methyl-2-(2-(4-(trifluoromethyl)phenyl)butanamido)thiophene-3-carboxylate] (H-VVVV-{Ethylenediamine-X1}), the EC50 came out at 5.9 µM.

Regarding `CCC(C(=O)Nc1sc(C(=O)NCCNC(=O)[C@H](C)NC(=O)[C@H](C)NC(=O)OC(C)(C)C)c(C)c1C(=O)OC)c1ccc(C(F)(F)F)cc1` (stereo partly drawn) [Compound 29, methyl 4-methyl-5-(((6S,9S)-2,2,6,9-tetramethyl-4,7,10-trioxo-3-oxa-5,8,11-triazatridecan-13-yl)carbamoyl)-2-(2-(4-(trifluoromethyl)phenyl)butanamido)thiophene-3-carboxylate], the EC50 was found to be 31.3 µM.

`CCC(C(=O)Nc1sc(C(=O)NCCNC(=O)[C@H](C)NC(=O)[C@H](C)N)c(C)c1C(=O)OC)c1ccc(C(F)(F)F)cc1` (stereo partly drawn) [Compound 30, methyl 5-((2-((S)-2-((S)-2-aminopropanamido)propanamido)ethyl)carbamoyl)-4-methyl-2-(2-(4-(trifluoromethyl)phenyl)butanamido)thiophene-3-carboxylate]: the EC50 was 31.3 µM.

Take `CCC(C(=O)Nc1sc(C(N)=O)c(C)c1C(=O)NCCNC(=O)OC(C)(C)C)c1ccc(F)cc1` (stereo not shown) [Compound 32, tert-butyl (2-(5-carbamoyl-2-(2-(4-fluorophenyl)butanamido)-4-methylthiophene-3-carboxamido)ethyl)carbamate]: the EC50 came out at 29.5 µM.

Take `CCC(C(=O)Nc1sc(C(N)=O)c(C)c1C(=O)NCCNC(=O)[C@@H](NC(=O)[C@@H](NC(=O)[C@@H](NC(=O)OC(C)(C)C)C(C)C)C(C)C)C(C)C)c1ccc(F)cc1` (stereo partly drawn) [Compound 40, tert-butyl ((7S,10S,13S)-1-(5-carbamoyl-2-(2-(4-fluorophenyl)butanamido)-4-methylthiophen-3-yl)-7,10-diisopropyl-14-methyl-1,6,9,12-tetraoxo-2,5,8,11-tetraazapentadecan-13-yl)carbamate]: the EC50 amounted to 38.9 µM.

Turning to `CCC(C(=O)Nc1sc(C(=O)NCCCN)c(C)c1C(=O)OC)c1ccc(F)cc1` (stereo not shown) [Compound 42, methyl 5-((3-aminopropyl)carbamoyl)-2-(2-(4-fluorophenyl)butanamido)-4-methylthiophene-3-carboxylate], the EC50 turned out to be 20 µM.

As for `CCC(C(=O)Nc1sc(C(=O)NCCOCCNC(=O)OC(C)(C)C)c(C)c1C(=O)OC)c1ccc(F)cc1` (stereo not shown) [Compound 43, methyl 5-((2-(2-((tert-butoxycarbonyl)amino)ethoxy)ethyl)carbamoyl)-2-(2-(4-fluorophenyl)butanamido)-4-methylthiophene-3-carboxylate], the EC50 came out at 29.9 µM.

`CCC(C(=O)Nc1sc(C(=O)NCCNC(=O)[C@H](C)NC(=O)[C@@H](NC(=O)OC(C)(C)C)C(C)C)c(C)c1C(=O)OC)c1ccc(F)cc1` (stereo partly drawn) [Compound 44, methyl 2-(2-(4-fluorophenyl)butanamido)-5-(((6S,9S)-6-isopropyl-2,2,9-trimethyl-4,7,10-trioxo-3-oxa-5,8,11-triazatridecan-13-yl)carbamoyl)-4-methylthiophene-3-carboxylate]: the EC50 was determined as 35.9 µM.

For `CCC(C(=O)Nc1sc(C(=O)NCCNC(=O)[C@H](C)NC(=O)[C@@H](N)C(C)C)c(C)c1C(=O)OC)c1ccc(F)cc1` (stereo partly drawn) [Compound 45, methyl 5-((2-((S)-2-((S)-2-amino-3-methylbutanamido)propanamido)ethyl)carbamoyl)-2-(2-(4-fluorophenyl)butanamido)-4-methylthiophene-3-carboxylate], the EC50 worked out at 33 µM.

As for `CCC(C(=O)Nc1sc(C(=O)NCCCNC(=O)[C@@H](NC(=O)[C@@H](N)C(C)C)C(C)C)c(C)c1C(=O)OC)c1ccc(F)cc1` (stereo partly drawn) [Compound 48, methyl 5-((3-((S)-2-((S)-2-amino-3-methylbutanamido)-3-methylbutanamido)propyl)carbamoyl)-2-(2-(4-fluorophenyl)butanamido)-4-methylthiophene-3-carboxylate], the EC50 was 20.5 µM.

The test is the same for the next values; noted with them: Orthopoxvirus vaccinia, read-out: EC50, infection of the surrogate virus mD4-VV.
Broadly, the pEC50 is the EC50 on a negative log10 scale, so that one unit is a factor of ten. As for `CCC(C(=O)Nc1sc(C(=O)NCCNC(=O)[C@@H](NC(=O)[C@@H](NC(=O)[C@@H](N)C(C)C)C(C)C)C(C)C)c(C)c1C(=O)OC)c1ccc(F)cc1` (stereo partly drawn) [Compound 9, Methyl 5-((2-((S)-2-((S)-2-((S)-2-amino-3-methylbutanamido)-3-methylbutanamido)-3-methylbutanamido)ethyl)carbamoyl)-2-(2-(4-fluorophenyl)butanamido)-4-methylthiophene-3-carboxylate], the pEC50 was 5.68.

The same test, now with this note: mD4-VV surrogate virus infection.
For `CCC(C(=O)Nc1sc(C(=O)NCCNC(=O)[C@@H](NC(=O)[C@@H](NC(=O)[C@@H](N)C(C)C)C(C)C)C(C)C)c(C)c1C(=O)OC)c1ccc(F)cc1` (stereo partly drawn) [Compound 9, Methyl 5-((2-((S)-2-((S)-2-((S)-2-amino-3-methylbutanamido)-3-methylbutanamido)-3-methylbutanamido)ethyl)carbamoyl)-2-(2-(4-fluorophenyl)butanamido)-4-methylthiophene-3-carboxylate], the “fold greater potency (EC50) than compound 7269” value is reported as 6.3 fold.

Values taken from US20250332276A1, “Inhibitors of Molluscum Contagiosum Infection and Methods Using the Same” (priority 2022, published 2025).
